Pooled drug test results. Numbers come from NIAID ChemDB, via PubChem.

Common to all: whole-cell or culture tests; organism: Mycobacterium avium complex

Lines come from different laboratories, so protocols vary.

structure	strain	read-out	method	dose	value
CC[C@H]1OC(=O)[C@H](C)[C@@H](OC2C[C@@](C)(OC)[C@@H](O)[C@H](C)O2)[C@H](C)[C@@H](O[C@@H]2O[C@H](C)C[C@H](N(C)C)[C@H]2O)C(C)(O)C[C@@H](C)/C(=N\OCCCCc2ccccc2)[C@H](C)[C@@H](O)[C@]1(C)O	20092 (clarithromycin-resistant)	MIC	-	-	6.25 µg/mL
C[C@@H]1CN(c2c(F)c(N)c3c(=O)c(C(=O)O)cn(C4CC4)c3c2F)C[C@H](C)N1	ATCC 15769	MBC	-	-	1 µg/mL
CCc1cc(C(N)=S)ccn1	713 strains	inhibition	agar	5 µg/mL	5%
CC1(C)N=C(N)N=C(N)N1OCCCOc1cc(Cl)c(Cl)cc1Cl	DW4	MIC	-	-	2 µg/mL
CC[C@H]1OC(=O)[C@H](C)[C@@H](O[C@H]2C[C@@](C)(OC)[C@@H](OC(C)=O)[C@H](C)O2)[C@H](C)[C@@H](O[C@@H]2O[C@H](C)C[C@H](N(C)C)[C@H]2O)C(C)(O)C[C@@H](C)/C(=N\OCCCCCc2ccccc2)[C@H](C)[C@@H](O)[C@]1(C)O	20096 (clarithromycin-resistant)	MIC	-	-	3.13 µg/mL
N[C@@H]1CONC1=O	713 strains	inhibition	agar	30 µg/mL	26%
CC[C@H]1OC(=O)[C@H](C)[C@@H](OC(=O)CC2CCCCC2)[C@H](C)[C@@H](O[C@@H]2O[C@H](C)C[C@H](N(C)C)[C@H]2O)C(C)(O)C[C@@H](C)/C(=N\OCCCOc2ccccc2)[C@H](C)[C@@H](O)[C@]1(C)O	20092 (clarithromycin-resistant)	MIC	-	-	12.5 µg/mL
CO[C@H]1/C=C/O[C@@]2(C)Oc3c(C)c(O)c4c(O)c(c5c(c4c3C2=O)NC2(CCN(CC(C)C)CC2)N=5)=NC(=O)/C(C)=C\C=C\[C@H](C)[C@H](O)[C@@H](C)[C@@H](O)[C@@H](C)[C@H](OC(C)=O)[C@@H]1C	N-980 (HIV+)	MIC	-	-	0.4 µg/mL
CC(C)N=C(N)/N=C(\N)NOCCCOc1cc(Cl)c(Cl)cc1Cl	ATCC35801	MIC	-	-	32 µg/mL
CO[C@H]1/C=C/O[C@@]2(C)Oc3c(C)c(O)c4c(=O)c(c5oc6cc(N7CCN(CC(C)C)CC7)cc(=O)c6nc5c4c3=C2O)NC(=O)/C(C)=C\C=C\[C@H](C)[C@H](O)[C@@H](C)[C@@H](O)[C@@H](C)[C@H](OC(C)=O)[C@@H]1C	N-945 (HIV+)	MIC	-	-	0.016 µg/mL
CCc1nc(N)nc(N)c1-c1ccc(Cl)cc1	3404-4	MIC	-	-	32 µg/mL
C[C@@H]1CN(c2c(F)c(N)c3c(=O)c(C(=O)O)cn(C4CC4)c3c2F)C[C@H](C)N1	N-316 (HIV-)	MIC	-	-	1 µg/mL
CC[C@H]1OC(=O)[C@H](C)[C@@H](OC2C[C@@](C)(OC)[C@@H](O)[C@H](C)O2)[C@H](C)[C@@H](O[C@@H]2O[C@H](C)C[C@H](N(C)C)[C@H]2O)C(C)(O)C[C@@H](C)/C(=N\OCC2CCCCC2)[C@H](C)[C@@H](O)[C@]1(C)O	20092 (clarithromycin-resistant)	MIC	-	-	>50 µg/mL
NNC(=O)c1ccncc1	N-314 (HIV-)	MIC	-	-	2 µg/mL
CCCCCCCCCCO/N=C1\[C@H](C)CC(C)(O)[C@H](O[C@@H]2O[C@H](C)C[C@H](N(C)C)[C@H]2O)[C@@H](C)[C@H](OC2C[C@@](C)(OC)[C@@H](O)[C@H](C)O2)[C@@H](C)C(=O)O[C@H](CC)[C@@](C)(O)[C@H](O)[C@H]1C	20092 (clarithromycin-resistant)	MIC	-	-	25 µg/mL

Repeating the first 2 entries:

structure	strain	read-out	method	dose	value
CC[C@H]1OC(=O)[C@H](C)[C@@H](OC2C[C@@](C)(OC)[C@@H](O)[C@H](C)O2)[C@H](C)[C@@H](O[C@@H]2O[C@H](C)C[C@H](N(C)C)[C@H]2O)C(C)(O)C[C@@H](C)/C(=N\OCCCCc2ccccc2)[C@H](C)[C@@H](O)[C@]1(C)O	20092 (clarithromycin-resistant)	MIC	-	-	6.25 µg/mL
C[C@@H]1CN(c2c(F)c(N)c3c(=O)c(C(=O)O)cn(C4CC4)c3c2F)C[C@H](C)N1	ATCC 15769	MBC	-	-	1 µg/mL

Inhibition is in % at the dose shown (toxicity tests: loss of growth or viability). An empty or dashed field is not shown.